Results from patent US7723021B2, “Methods for treating lentivirus infections” (The J. David Gladstone Institutes, priority 2003, dated 2010).

Test system: HIV-1 Vif-mediated degradation of HA-APOBEC3G
Assay: Co-transfection of HEK 293 cells with HA-APOBEC3G, HA-(1-104)APOBEC3G and Vif vectors, anti-HA immunoblot
Assay type: cell-based
Conditions: 2 μg or 4 μg of HA-(1-104)APOBEC3G expression vector
Method: HEK 293 cells were co-transfected with an HA-APOBEC3G expression vector or with increasing amounts (2 μg or 4 μg) of an HA-(1-104)APOBEC3G expression vector; and either an HIV-1 Vif or a control expression vector. The HA-APOBEC3G expression vector encodes wild-type (e.g., full-length) APOBEC3G fused in-frame to the hemagglutinin-epitope tag at the N-terminus. The HA-(1-104)APOBEC3G expression vector encodes amino acids 1-104 of APOBEC3G fused in-frame to the hemagglutinin-epitope tag. Cell lysates were clarified by centrifugation, and equal amounts of protein separated by SDS-PAGE. The separated proteins were transferred to nitrocellulose membranes, and both HA-APOBEC3G and HA-(1-104)APOBEC3G on the membranes were detected by anti-HA antibody. In cells transfected with the HA-APOBEC3G expression vector (and not co-transfected with the Vif expression vector), HA-APOBEC3G was produced that migrated at about 50 kD. In cells co-transfected with the Vif expression vector and the HA-APOBEC3G expression vector (and not co-transfected with the HA-(1-104)APOBEC3G expression vector), most of the HA-APOBEC3G was degraded.

B1: HA-(1-104)APOBEC3G: amino acids 1-104 of APOBEC3G fused in-frame to the hemagglutinin-epitope tag, expressed from a vector (protein)
chain: MKPHFRNTVERMYRDTFSYNFYNRPILSRRNTVWLCYEVKTKGPSRPPLDAKIFRGQVYSELKYHPEMRFFHWFSKWRKLHRDQEYEVTWYISWSPCTKCTRDM
modifications: left off: small tags and cut ends
steady-state production of the ~50 kD HA-APOBEC3G fusion protein in the presence of Vif: significantly restored
